PubChem BioAssay AID504761 – Drosophila RNAi Screening Center, 2011
Aim: 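Genome-wide fly cell screen for genes dengue virus requires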 (primary screen). Cells: D.Mel-2 cells from Drosophila. Reagents: long dsRNA against Drosophila genes. Challenge: infection with dengue virus type 2; dose and infection time not stated. Read-out: 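Per well on two replicate plates, imaging gave the percent of cells positive for viral envelope protein, ranked by infection, and a nuclear count of cells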. Direction: infection score: higher = more virus-infected cells; cell count: higher = more cells in the well. Hit rule: 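Low infection ranks in the two replicates (chance level up to 0.065) followed by a retest with a 1.5-fold or larger significant decrease, p below 0.05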. Meaning of the calls: active = confirmed: knock-down lowers infection; inactive = not picked or not confirmed.
The screen tested about 22,000 reagents; shown is an unselected part of those that have a named target and a result. Over the whole deposit, 116 (0.52%) were called active. 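Calls depend on retest data that are not deposited; infection was ranked per plate without normalising between plates; the unit of the infection score is not given.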 Raw values vary from plate to plate and are shown uncorrected. A plus sign joins genes that one reagent is predicted to hit. Not all columns of the deposit are shown. No sequences are given here. Not given: the amount of reagent, the time to read-out.

target | DRSC id | infection score, replicate 1 | infection score, replicate 2 | cell count, replicate 1 | Call
PIG-H + Kmn2 | DRSC12653 | 2.8 | 3.37 | 4646 | inactive
mthl3 (GeneID 36961) | DRSC06997 | 14.6 | 10.8 | 5548 | inactive
mthl3 (GeneID 36961) | DRSC24927 | 4.32 | 4.4 | 6024 | inactive
knon (GeneID 36845) | DRSC07049 | 25.7 | 15 | 5968 | inactive
Nlg1 (GeneID 40913) | DRSC12485 | 2.56 | 4.46 | 6373 | inactive
Nlg1 (GeneID 40913) | DRSC12532 | 2.97 | 10.4 | 6664 | inactive
Nlg1 (GeneID 40913) | DRSC12533 | 15.2 | 15.1 | 6407 | inactive
Nlg1 (GeneID 40913) | DRSC12539 | 6.07 | 9.63 | 6329 | inactive
CG42820 + CG42819 | DRSC02264 | 4.13 | 15.2 | 6107 | inactive
CG42820 + CG42819 | DRSC02265 | 4.63 | 5.72 | 5913 | inactive
CG10154 (GeneID 39509) | DRSC09707 | 2.92 | 1.38 | 6654 | inactive
Zcchc7 (GeneID 39883) | DRSC11099 | 13.5 | 8.62 | 4579 | inactive
Zcchc7 (GeneID 39883) | DRSC25470 | 16.8 | 10.4 | 6390 | inactive
CG5561 (GeneID 33321) | DRSC00688 | 1.34 | 1.14 | 6628 | inactive
Septin1 (GeneID 33114) | DRSC20573 | 5.61 | – | 6079 | inactive
CG15599 (GeneID 32503) | DRSC19668 | 6.94 | 12.5 | 2391 | inactive
Trhn (GeneID 38121) | DRSC08621 | 7.18 | 8.82 | 6216 | inactive
Rab21 (GeneID 3355163) | DRSC20968 | 1.02 | 1.24 | 5705 | inactive
Rab21 (GeneID 3355163) | DRSC28617 | 19.6 | 14.9 | 5919 | inactive
Irk3 (GeneID 35131) | DRSC02047 | 12.2 | 11.2 | 4993 | inactive
CG5348 (GeneID 36877) | DRSC06933 | 8.53 | 8.79 | 6156 | inactive
ND-B18 (GeneID 32434) | DRSC19947 | 0.61 | 3.91 | 6091 | inactive
ND-B18 (GeneID 32434) | DRSC27676 | 6.58 | 3.77 | 6305 | inactive
CG14227 (GeneID 32978) | DRSC19584 | 32.5 | 6.9 | 5297 | inactive
CG14227 (GeneID 32978) | DRSC29213 | 14.3 | – | 4367 | inactive
GCC185 (GeneID 41459) | DRSC15493 | 5.06 | 9.51 | 6467 | inactive
CG30161 (GeneID 37945) | DRSC22141 | 0.68 | 1.65 | 6758 | inactive
Jhbp1 (GeneID 40613) | DRSC12167 | 6.34 | 11.6 | 6686 | inactive
Jhbp1 (GeneID 40613) | DRSC26183 | 6.16 | 13.4 | 3573 | inactive
Rca1 (GeneID 33959) | DRSC03407 | 21.3 | 18.8 | 867 | inactive
Spn28F (GeneID 49807) | DRSC03615 | 3.53 | 16.2 | 6111 | inactive
Spn28F (GeneID 49807) | DRSC25759 | 2.8 | 1.14 | 6252 | inactive
mthl9 (GeneID 38056) | DRSC08506 | 0.73 | 0.68 | 5895 | inactive
CG10104 (GeneID 36602) | DRSC05964 | 8.22 | 21.3 | 6847 | inactive
CG13016 (GeneID 36562) | DRSC06271 | 6.79 | 7.44 | 6675 | inactive
Tdh (GeneID 40268) | DRSC11788 | 0.21 | 26.4 | 485 | inactive
CG13325 (GeneID 36437) | DRSC06362 | 20.9 | 23.8 | 6242 | inactive
CG13325 (GeneID 36437) | DRSC24773 | 1.82 | 1.62 | 7086 | inactive
Fkbp14 (GeneID 37449) | DRSC04615 | 9.64 | 5.77 | 6451 | inactive
Hnf4 (GeneID 44544) | DRSC03344 | 4.41 | 8.07 | 5755 | inactive
Hnf4 (GeneID 44544) | DRSC26864 | 3.08 | 4.9 | 6237 | inactive
Hsc70-1 (GeneID 39542) | DRSC11185 | 3.62 | 2.92 | 5721 | inactive
Hsc70-1 (GeneID 39542) | DRSC25201 | 4.86 | 2.19 | 6463 | inactive
CG14182 (GeneID 40181) | DRSC10181 | 5.3 | 15.2 | 6316 | inactive
PI31 (GeneID 36277) | DRSC07306 | – | 8.27 | 422 | inactive
Best1 (GeneID 53431) | DRSC16909 | 2.55 | 5.5 | 5447 | inactive
Best1 (GeneID 53431) | DRSC26475 | 3.62 | 1.05 | 5663 | inactive
vir (GeneID 47869) | DRSC04377 | – | 12.6 | 456 | inactive
vir (GeneID 47869) | DRSC26525 | 1.48 | 4.56 | 5685 | inactive
CG10584 (GeneID 40324) | DRSC11624 | 13.1 | 16.1 | 6584 | inactive
CG31221 (GeneID 42325) | DRSC14335 | 7.27 | 1.31 | 6139 | inactive
CG31221 (GeneID 42325) | DRSC16217 | 1.3 | 4.24 | 6931 | inactive
CG31221 (GeneID 42325) | DRSC23748 | 1.91 | 8.4 | 6895 | inactive
CG10973 (GeneID 39447) | DRSC09813 | 5.9 | 10.7 | 6372 | inactive
CG5953 (GeneID 34985) | DRSC01546 | 1.11 | – | 6774 | inactive
CG5953 (GeneID 34985) | DRSC28725 | 12.9 | 5.54 | 3544 | inactive
Hip1 (GeneID 39450) | DRSC09812 | 9.28 | 1.48 | 6551 | inactive
wuho (GeneID 31566) | DRSC18101 | 1.4 | 2.23 | 6451 | inactive
wuho (GeneID 31566) | DRSC27950 | 23.9 | 2.32 | 5806 | inactive
CG13458 (GeneID 39646) | DRSC10005 | 7.44 | 4.44 | 6211 | inactive
CG13458 (GeneID 39646) | DRSC24392 | 8.35 | 9.49 | 6766 | inactive
kuz (GeneID 34772) | DRSC03555 | 4.92 | 2.89 | 6733 | inactive
mrn (GeneID 39688) | DRSC10913 | 2.24 | 25.6 | 758 | inactive
Rnf11 (GeneID 318246) | DRSC21574 | 3.55 | 4.72 | 6175 | inactive
Rnf11 (GeneID 318246) | DRSC27053 | 5.54 | 12.2 | 6323 | inactive
CG4612 (GeneID 37914) | DRSC04478 | 17.9 | 11.9 | 6128 | inactive
spg (GeneID 43404) | DRSC14373 | 1.05 | 0.39 | 6666 | active
spg (GeneID 43404) | DRSC14881 | 4.02 | 1.1 | 6070 | inactive
CG18281 (GeneID 40274) | DRSC11742 | 9.68 | 12.2 | 5662 | inactive
Cdk2 (GeneID 42453) | DRSC16921 | 8.73 | 6.87 | 3644 | inactive
CG5111 (GeneID 43085) | DRSC15717 | 7.49 | 11.5 | 2525 | inactive
Ski6 (GeneID 34721) | DRSC02491 | 5.55 | 10.3 | 5463 | inactive
Pgam5 (GeneID 31143) | DRSC18551 | 3.63 | 3.38 | 6532 | inactive
CG7611 (GeneID 40386) | DRSC11840 | 1.13 | 0.96 | 5862 | inactive
